These results are taken from patent US20140093504A1 (HER MAJESTY THE QUEEN IN RIGHT OF CANADA AS REPRESENTED BY …, published 2014).

For experiment [1], the target named is T1, ricin (castor plant, UniProt P02879 36-302; P02879 315-576). Description: ELISA on plate-coated ricin, HRP-goat anti-mouse IgG, TMB, absorbance at 615 nm.
For experiment [2], the target named is T1, ricin. As to the kind of experiment: SPR; ricin captured on biosensor chip, antibody in flow.
The target in experiment [3] is T1, ricin. As to the kind of experiment: SPR; ricin captured on biosensor chip, antibody in flow; KD from koff/kon.

B1: monoclonal antibody A9 (antibody, V domains shown)
VH: KVQLQESGAELMKPGASVKISCKATGYTFSSYWIQWIKQRPGHGLEWIGEILPGTGNTNYSEKFKGKATFTTDTSSNTAYMHFSSLTSEDSAVYYCSRCEGEGYFQAWFAYWGQGTTVTVSS
VL: DIQMTQSPSSLSASLGGKVTITCKASQDIKQYIAWYQYKPGKGPRLLIHYTSTLQPGIPSRFSGSGSGRDYSFSISNLDPEDIATYYCLQYDHLYTFGGGTKLEIKR
B1: the “EC50 (read off the curve)” value with ricin [1] is about 5 ng/mL.

B2: monoclonal antibody D3 (antibody, V domains shown)
VH: KVKLQESGAELMKPGASVKISCKSTGYTFSNYWIEWIKQRPGHGLEWIGEILPGSGSINYDEKFKGKATFTADTSSDTVYMFLSGLTSEDSAVYYCARQANRGFDSAWFAYWGQGTTVTVSS
VL: DIQMTQSPSSLSAFVGGKVTITCKASQDIKKYIGWYQQKPGKGPRLLIHYTSTLQPGIPSRFSGSGSGRDYSFSISNLEPEDIATYYCLQYDSLYTFGGGTKLEIKR
As for B2, the concentration for a half-maximal effect (EC50 (read off the curve)) with ricin [1] was about 1 ng/mL.

B3: monoclonal antibody D9 (antibody, V domains shown)
VH: QVQLQESGPELVKPGASMKISCKASGYSFTEHIINWVKQTHRENLEWIGLINPNSGGTNYNQKFKDKATLTVDTASNTAYMELLSLTSEDSAVYYCARLRYDAAYWGQGTTVTVSS
VL: DIELTQSHKFMSTSVGDRVSITCKASQDVTAAVAWYQQKPGQSPKLLIHSASYRYTGVPDRFTGSGSGSDFTFTISSVQAEDLAVYYCQQYYNTPLTFGAGTKLELKR
On to B3, for which, in the experiment with ricin [2], the dissociation rate constant (koff) was 0.00047 s⁻¹ and the kon is 184000 M⁻¹ s⁻¹. For the same molecule, the “EC50 (read off the curve)” value with ricin [1] is about 2 ng/mL. The molecule further showed a Kd with ricin [3] of 2.56 nM.

B4: humanized D9 (antibody, V domains shown)
VH: QVQLVQSGAEVKKPGASVKVSCKASGYTFTEHIINWVRQAPGQNLEWMGLINPNSGGTNYNQKFKDRVTMTTDTSTSTAYMELLSLRSDDTAVYYCARLRYDAAYWGQGTTVTVSS
VL: DIQMTQSPSSLSASVGDRVTITCKASQDVTAAVAWYQQKPGKAPKLLIYSASYRYTGVPSRFSGSGSGTDFTLTISSLQPEDFATYYCQQYYNTPLTFGGGTKVEIK
In the experiment with ricin [2], B4 yielded a koff of 0.00068 s⁻¹ and a kon of 419000 M⁻¹ s⁻¹. Also, binding with ricin [3] was put at a Kd of 1.63 nM.

B5: monoclonal antibody B10 (antibody, V domains shown)
VH: EVQLQESGTGLVKPGASVKLSCKASGYTFTEYIINWVKQRSGQGLEWIGWFYPGSGDIKYNEKFKDKATLTADKSSSTVYMELSRLTSEDSAVYFCARNGRWDDDYFDYWGQGTTVTVSS
VL: DIVLTQSPSSMYASLGERVTITCKASQDINNYLRWFQQKPGKSPKTLIYRANRLVDGVPSRFSGSGSGQDYSLTISSLEYEDMGFYSCLQYDEFPYTFGGGTKLEIKR
With B5, the “EC50 (read off the curve)” value in the experiment with ricin [1] was about 10 ng/mL.
